Results of unrelated studies side by side (data: NIAID ChemDB).

Shared fields: cytotoxicity tests; read-out: CC50

Conditions beyond the fields shown may differ between rows. a–b is a range or a potency band. CCn is the concentration with n% toxicity to the cells.

Nc1ncn([C@@H]2O[C@H](CO)[C@@H](O)[C@H]2O)c(=O)n1 ; cell line: U373-MAGI ; method: ATP / luminescence ; value: 387 µM
Nc1nc(OCc2ccccc2)c2ncn(/C=C3/C[C@@H]3CO)c2n1 ; cell line: Akata ; method: ATP ; value: >20 µM
CCc1nn(CCO)c(C)c1CC(=O)N[C@@H](Cc1ccccc1)C(=O)N(C)c1ccc2c(c1)OCO2 ; cell line: MT-2 ; method: ATP ; value: >20 µM
N#CC1=C(N)SC(c2ccncc2)C2=C1/C(=C/c1ccncc1)CCC2 ; cell line: CNE-2 ; method: MTT ; value: >50 µM
COc1ccc(N(C)C(=O)[C@H](Cc2ccccc2)NC(=O)Cn2c(=O)n(CC(=O)N[C@@H](Cc3ccccc3)C(=O)N(C)c3ccc(OC)cc3)c3cc(NC(C)=O)ccc32)cc1 ; cell line: MT-2 ; method: XTT ; value: 100 µM
CCCCCOc1nc(N)nc2c1ncn2/C=C1/C[C@@H]1CO ; cell line: Akata ; method: ATP ; value: >20 µM
COc1ccc(/C=N/n2cc(C(=O)O)c3ccccc3c2=O)cc1 ; cell line: HEP-2/L-929/VERO ; value: 500 µM
Cc1nnc(-c2cccc(-c3ccc(C(=O)N(Cc4cccc(OCCCCCC(=O)OC(=O)O)c4)C(C)C)cc3)c2)o1 ; cell line: HEK 293 ; value: >20 µM
N=c1c2c(ncn1Nc1ccccc1)SC(c1ccncc1)C1=C2/C(=C/c2ccncc2)CCC1 ; cell line: CNE-2 ; method: MTT ; value: 12.9 µM
O=C1O[C@@H](CNS(=O)(=O)c2ccc(F)cc2)CN1c1ccc(N2CCOCC2)c(F)c1 ; cell line: Human foreskin fibroblasts ; method: MTT ; value: >100 µg/mL
Clc1ccc2c(NCCCNCc3ccc(Br)cc3)ccnc2c1 ; cell line: HepG2 cells ; method: MTT ; value: 4.946 µM
Nc1ncnc2c([C@H]3C[C@H](O)[C@@H](CO)O3)[nH]nc12 ; cell line: PRK/E6SM ; value: >400 µg/mL
O[C@H](c1cc(C(F)(F)F)nc2c(C(F)(F)F)cccc12)[C@H]1CCCCN1 ; cell line: HepG2-A16 ; method: MTT ; value: 25.6 µM
CCc1nn(CC(=O)N[C@@H](Cc2ccccc2)C(=O)N(C)c2ccc3c(c2)OCO3)c(C)c1CCO ; cell line: MT-2 ; method: ATP ; value: >20 µM
COc1cc(F)cc(-c2ccc(C(=O)N(Cc3cccc(OCCCCCC(=O)OC(=O)O)c3)C(C)C)cc2)c1 ; cell line: RAJI ; value: >20 µM
CC(C)COc1nc(N)nc2c1ncn2/C=C1/C[C@@H]1CO ; cell line: Akata ; method: ATP ; value: >20 µM
O=c1sc2nc3c(c(=S)n2/c1=C/c1ccccc1)C1=C(CCC/C1=C\c1ccncc1)C(c1ccncc1)S3 ; cell line: KB ; method: MTT ; value: 38.5 µM
COC(=O)c1cc(-c2cccs2)nc2ccccc12 ; cell line: HEK 293 ; value: >20 µM
CCOC(=O)[C@@]1(C)CC[C@]2(C)CC[C@]3(C)C(=CC(=O)[C@@H]4[C@@]5(C)CC/C(=N\OCc6ccccc6C#N)C(C)(C)[C@@H]5CC[C@]43C)[C@@H]2C1 ; cell line: K562 ; method: MTT ; value: 55.24 µM
CCC(C(=O)N[C@@H](Cc1ccccc1)C(=O)N(C)c1ccc2c(c1)OCO2)n1nc(C2CC2)c(CCO)c1C ; cell line: MT-2 ; method: ATP ; value: >20 µM
CCOC(=O)[C@@]1(C)CC[C@]2(C)CC[C@]3(C)C(=CC(=O)[C@@H]4[C@@]5(C)CC/C(=N\OCc6ccc(Br)cc6)C(C)(C)[C@@H]5CC[C@]43C)[C@@H]2C1 ; cell line: CT26 ; method: MTT ; value: 55.87 µM
CCCCOC(=O)C(N)CCSC[C@H]1O[C@@H](n2ccc3c(N)ncnc32)[C@H](O)[C@@H]1O ; cell line: PRK/E6SM ; value: 40 µg/mL
CCOC(=O)/C=C/[C@H](C[C@@H]1CCNC1=O)NC(=O)c1ccc2ccc(Br)cc2c1 ; cell line: H1-HELA ; value: >100 µM
COc1ccncc1CNCCCNc1ccnc2cc(Cl)ccc12 ; cell line: HepG2 cells ; method: MTT ; value: 2.906 µM
Cc1n[nH]c(=S)n1N ; cell line: Fibroblast L929 ; method: MTT ; value: >100 µg/mL
CCOC(=O)[C@@]1(C)CC[C@]2(C)CC[C@]3(C)C(=CC(=O)[C@@H]4[C@@]5(C)CC/C(=N\OCc6c(C)noc6C)C(C)(C)[C@@H]5CC[C@]43C)[C@@H]2C1 ; cell line: K562 ; method: MTT ; value: 22.49 µM
Nc1ncnc2c1ncn2[C@@H]1O[C@H](CSCCC(N)C(=O)O)C[C@H]1O ; cell line: PRK/E6SM ; value: 200 µg/mL
Fc1ccc(CNCCNc2ccnc3cc(Cl)ccc23)cc1 ; cell line: HepG2 cells ; method: MTT ; value: 16 µM
Nc1ncnc2c1CCN2[C@@H]1O[C@H](CO)C[C@H]1O ; cell line: PRK/E6SM ; value: 40 µg/mL
CC(=O)Nc1cc(O)c(C(=O)O)cc1F ; cell line: L6 rat myoblasts ; method: resazurin ; value: 173 µM
O=[N+]([O-])c1ccc(N=NNc2ccc([N+](=O)[O-])cc2Br)c(Br)c1 ; cell line: J774A.1 ; method: neutral red ; value: 52.46 µM
CCOC(=O)C1=C(O)/C(=C\c2cc(C)n(C3CCN(Cc4cccnc4)CC3)c2C)N=C1C ; cell line: L6 ; value: 27 µM
CC(C)N(Cc1ccccc1OCC(=O)O)C(=O)c1ccc(-c2ccc3c(c2)OCO3)cc1 ; cell line: KEP293 ; value: >20 µM
CCN1C(N2CCN(c3ccc(N4C[C@H](CNC(C)=O)OC4=O)cc3F)CC2)=NS(=O)(=O)c2ccccc21 ; cell line: Human foreskin fibroblasts ; method: MTT ; value: >50 µg/mL
CCC[C@@H](C)[C@@H]1OC(=O)[C@H](C(C)C)N(C)C(=O)[C@H](CO)NC(=O)[C@H]([C@H](C)C(N)=O)NC(=O)[C@@H](C(C)OC(N)=O)NC(=O)[C@H](O)CNC(=O)/C=C/C=C/C[C@H](O)[C@H]1C ; cell line: HCT116 ; method: MTT ; value: >25 µg/mL
CCOC(=O)c1[nH]c2c(c1NC(N)=S)C1=C(CCC/C1=C\c1ccncc1)C(c1ccncc1)S2 ; cell line: MGC-803 ; method: MTT ; value: >50 µM
CC1=CC2c3c(cc4oc(-c5cc(O)cc(O)c5)cc4c3C)O[C@@]3(c4ccc(O)cc4O)Oc4cc(O)ccc4[C@H](C1)C23 ; cell line: HepG2.2.5 cells ; method: MTT ; value: 6.79 µM
O=C1CCn2c(nc3c(c2=S)C2=C(CCC/C2=C\c2ccncc2)C(c2ccncc2)S3)S1 ; cell line: MCF-7 ; method: MTT ; value: 41.1 µM
COc1nc(N)nc2c1ncn2/C=C1/C[C@@H]1CO ; cell line: Akata ; method: ATP ; value: >20 µM
CCOC(=O)CCCCCOc1cccc(CN(C(=O)c2ccc(-c3cc4ccccc4n3S(=O)(=O)c3ccccc3)cc2)C(C)C)c1 ; cell line: HepG2 ; value: >20 µM
O=c1[nH]c(=S)[nH]c2c3c([nH]c12)SC(c1ccncc1)C1=C3/C(=C/c2ccncc2)CCC1 ; cell line: MCF-7 ; method: MTT ; value: 14.3 µM
Nc1nccc2c1ncn2[C@H]1CC[C@@H](CO)O1 ; cell line: PRK/E6SM ; value: 200 µg/mL
CCOC(=O)[C@@]1(C)CC[C@]2(C)CC[C@]3(C)C(=CC(=O)[C@@H]4[C@@]5(C)CC/C(=N\OCc6ccc(-c7ccccc7)cc6)C(C)(C)[C@@H]5CC[C@]43C)[C@@H]2C1 ; cell line: K562 ; method: MTT ; value: >100 µM
Cc1nc2c(c(=N)n1Nc1ccccc1)C1=C(CCC/C1=C\c1ccncc1)C(c1ccncc1)S2 ; cell line: MCF-7 ; method: MTT ; value: 12.4 µM
CC1(C)C(=O)CC[C@]2(C)[C@@H]1CC[C@@]13CC[C@@H](C[C@H]12)C([C@@H](O)CO)C3 ; cell line: HepG2/ADR ; method: MTT ; value: 93.74 µM
CC(=O)c1cccc(-c2ccc(C(=O)N(Cc3cccc(OCCCCCC(=O)OC(=O)O)c3)C(C)C)cc2)c1 ; cell line: BJ ; value: >20 µM
CCCCCCCCSc1nc(N)nc2c1ncn2/C=C1/C[C@@H]1CO ; cell line: Akata ; method: ATP ; value: >20 µM
Nc1ncnc2c1ncn2[C@@H]1O[C@H](CO)C[C@@H]1F ; cell line: ATH8 ; value: 100–200 µM
CSc1nc(N)nc2c1ncn2/C=C1/C[C@@H]1CO ; cell line: Akata ; method: ATP ; value: >20 µM
O=C(O)c1cn(/N=C/CCc2ccccc2)c(=O)c2ccccc12 ; cell line: HEP-2/L-929/VERO ; value: 750 µM
CCOC(=O)CCCCCOc1cccc(CN(C(=O)c2ccc(-c3cccc(Cl)c3)cc2)C(C)C)c1 ; cell line: BJ ; value: <13.5 µM
CCOC(=O)/C=C/[C@H](C[C@@H]1CCNC1=O)NC(=O)[C@@H](CC(=O)[C@@H](NC(=O)c1cc(C)on1)C(C)C)Cc1ccc(F)cc1 ; cell line: OHIO HELA-I ; value: >100 µg/mL
Nc1ncnc2c1ncn2C[C@H](O)CO ; cell line: PRK/E6SM ; value: >400 µg/mL
S=c1[nH]c2c(c(=S)[nH]1)C1=C(CCC/C1=C\c1ccncc1)C(c1ccncc1)S2 ; cell line: MGC-803 ; method: MTT ; value: 15.4 µM
CN(C(=O)[C@H](Cc1cc(F)cc(F)c1)NC(=O)NS(=O)(=O)N[C@@H](Cc1cc(F)cc(F)c1)C(=O)N(C)c1ccc2c(c1)ncn2C)c1ccc2c(c1)ncn2C ; cell line: MT-2 ; method: XTT ; value: 100 µM
O=C(NCCSSCCNC(=O)/C(Cc1ccc(O)c(Br)c1)=N/O)/C(Cc1ccc(O)c(Br)c1)=N\O ; cell line: Replicon cells ; method: XTT ; value: 22.7 µM
OCC1OC(O)CC1OP(O)(=S)OCC1OC(O)CC1OP(O)(=S)OCC1OC(O)CC1OP(O)(=S)OCC1OC(O)CC1OOP(O)(=S)OCC1OC(O)CC1OP(O)(=S)OCC1OC(O)CC1OP(O)(=S)OCC1OC(O)CC1OP(O)(=S)OCC1OC(O)CC1OOP(O)(=S)OCC1OC(O)CC1OP(O)(=S)OCC1OC(O)CC1OP(O)(=S)OCC1OC(O)CC1OP(O)(=S)OCC1OC(O)CC1OOP(O)(=S)OCC1OC(O)CC1O ; cell line: Rhesus macaque PBMC ; method: MTT ; value: >250 µM
CN(C)c1ccc(/C=C/C=N/n2cc(C(=O)O)c3ccccc3c2=O)cc1 ; cell line: HEP-2/L-929/VERO ; value: 150 µM
CCOC(=O)[C@@]1(C)CC[C@]2(C)CC[C@]3(C)C(=CC(=O)[C@@H]4[C@@]5(C)CC/C(=N\OCc6cccc(C#N)c6)C(C)(C)[C@@H]5CC[C@]43C)[C@@H]2C1 ; cell line: CT26 ; method: MTT ; value: >100 µM
Nc1ncnc2c([C@@H]3O[C@H](CSCCC(N)C(=O)O)C[C@H]3O)[nH]nc12 ; cell line: PRK/E6SM ; value: 40 µg/mL
CC[C@H](C)[C@H](N)[C@H](O)n1nc(C)c2c(Cl)c3cc(OC)ccc3nc21 ; cell line: FS-85 ; value: >100 µg/mL
CC(/C=N/n1cc(C(=O)O)c2ccccc2c1=O)=C\c1ccccc1 ; cell line: HEP-2/L-929/VERO ; value: 500 µM
CC1(C)[C@H]2CC[C@@]34CC[C@@H](C[C@H]3[C@]2(C)CC[C@@H]1O)C([C@@H](O)CO)C4 ; cell line: HepG2/ADR ; method: MTT ; value: 15.57 µM
Cc1c(CCO)c(C2CC2)nn1CC(=O)N[C@@H](Cc1ccccc1)C(=O)N(C)c1ccc2ncnn2c1 ; cell line: MT-2 ; method: ATP ; value: >20 µM

Again, the opening 7 rows:

Nc1ncn([C@@H]2O[C@H](CO)[C@@H](O)[C@H]2O)c(=O)n1 ; cell line: U373-MAGI ; method: ATP / luminescence ; value: 387 µM
Nc1nc(OCc2ccccc2)c2ncn(/C=C3/C[C@@H]3CO)c2n1 ; cell line: Akata ; method: ATP ; value: >20 µM
CCc1nn(CCO)c(C)c1CC(=O)N[C@@H](Cc1ccccc1)C(=O)N(C)c1ccc2c(c1)OCO2 ; cell line: MT-2 ; method: ATP ; value: >20 µM
N#CC1=C(N)SC(c2ccncc2)C2=C1/C(=C/c1ccncc1)CCC2 ; cell line: CNE-2 ; method: MTT ; value: >50 µM
COc1ccc(N(C)C(=O)[C@H](Cc2ccccc2)NC(=O)Cn2c(=O)n(CC(=O)N[C@@H](Cc3ccccc3)C(=O)N(C)c3ccc(OC)cc3)c3cc(NC(C)=O)ccc32)cc1 ; cell line: MT-2 ; method: XTT ; value: 100 µM
CCCCCOc1nc(N)nc2c1ncn2/C=C1/C[C@@H]1CO ; cell line: Akata ; method: ATP ; value: >20 µM
COc1ccc(/C=N/n2cc(C(=O)O)c3ccccc3c2=O)cc1 ; cell line: HEP-2/L-929/VERO ; value: 500 µM